Anti-infective test results gathered from many reports (values: NIAID ChemDB through PubChem).

Common to all: growth or infection tests; species: Candida albicans

Blank or dashed fields: not listed here. MIC50, MIC90 and the like: level of inhibition, or share of isolates inhibited. Two numbers with a dash give a range or band. Lines come from different laboratories, so protocols vary.

| structure | strain | method | endpoint | value |
|---|---|---|---|---|
| CCCCOc1ccccc1N1CCN(CCc2nnn(C(C)C(O)(Cn3cncn3)c3ccc(F)cc3F)n2)CC1 | V-01-191A-261 (resistant) |  | MIC | 2 µg/mL |
| CN(C)c1ccc(CN2CCN(Cc3ccc(N(C)C)cc3)[C]2=[Ru]([Cl])[Cl])cc1.Cc1c(C)c(C)c(C)c(C)c1C |  |  | MIC | 200 µg/mL |
| OC(Cn1cncn1)(Cn1cncn1)c1ccc(F)cc1F | TIMM3315 (azole-resistant) |  | MIC80 | 128 µg/mL |
| OC(Cn1cncn1)(Cn1nnnc1CCN1CCN(c2ccccc2Cl)CC1)c1ccc(F)cc1F |  |  | MIC | 4 µg/mL |
| COc1cc(C=C2SC(c3cc4cc(C)ccc4nc3Cl)N(n3c(-c4ccc(Cl)cc4)nc4ccccc4c3=O)C2=O)cc(OC)c1OC |  | broth dilution / visual reading | MIC99 | 1000 µg/mL |
| O=C1CCC(c2ccc(Oc3ccccc3)cc2)=NN1Cc1n[nH]c(=S)n1-c1ccc(Br)cc1 |  |  | MIC | 12 µg/mL |
| Cc1ccc2nc(Cl)c(C3SC(=Cc4ccc(Cl)cc4)C(=O)N3n3c(-c4ccc(Cl)cc4)nc4ccccc4c3=O)cc2c1 |  | broth dilution / visual reading | MIC99 | 500 µg/mL |
| CN(C)c1ccc(CN2CCN(Cc3ccc(N(C)C)cc3)[C]2=[Ru]([Cl])[Cl])cc1.Cc1ccc(C(C)C)cc1 |  |  | MIC | 100 µg/mL |
| N=C(N)c1ccc(OCCCCCCOc2ccc(C(=N)N)cc2)cc1 | CA2 | agar diffusion / agar | MIC | 33 µg/mL |
| COc1ccc(CN2CCN(Cc3ccc(OC)cc3)[C]2=[Ru]([Cl])[Cl])cc1.Cc1ccc(C(C)C)cc1 |  |  | MIC | 800 µg/mL |
| COc1ccc(N2COc3c(ccc4ccccc34)C2)cc1 | MTCC 277 |  | MIC | 20 µg/mL |
| Cc1ccc(C2=NN(Cc3n[nH]c(=S)n3-c3ccc(Cl)cc3)C(=O)CC2)cc1 |  |  | MIC | 6 µg/mL |
| C1=NCCCN1Cc1ccccc1.Cc1ccc(C(C)C)cc1.[Cl][Ru][Cl] |  |  | MIC | 400 µg/mL |
| O[C@](Cn1cncn1)(Cn1cnc(/C=C/c2ccc(OCC(F)(F)C(F)F)cc2)n1)c1ccc(F)cc1F |  |  | Mean MIC80 | 0.38 µg/mL |
| Cc1ccc2nc(Cl)c(C3SC(=Cc4ccccc4Cl)C(=O)N3n3c(-c4ccc(Cl)cc4)nc4ccccc4c3=O)cc2c1 |  | broth dilution / visual reading | MIC99 | 500 µg/mL |
| Cc1ccc(C2=NN(Cc3n[nH]c(=S)n3-c3ccc(Br)cc3)C(=O)CC2)cc1 |  |  | MIC | 10 µg/mL |
| C[C@H](n1nnnc1CCN1CCN(c2ccc(Cl)cc2)CC1)[C@](O)(Cn1cncn1)c1ccc(F)cc1F | V-01-191A-261 (resistant) |  | MIC | 2 µg/mL |
| Cc1ccc2nc(Cl)c(C3SC(=Cc4cccc([N+](=O)[O-])c4)C(=O)N3n3c(-c4ccc(Cl)cc4)nc4ccccc4c3=O)cc2c1 |  | broth dilution / visual reading | MIC99 | 500 µg/mL |
| O=C1CCC(c2ccccc2)=NN1Cc1n[nH]c(=S)n1-c1ccc(Cl)cc1 |  |  | MIC | 6 µg/mL |
| Cc1ccc2c(c1)nc1c(CN)c(-c3c(-c4ccc(Br)cc4)[nH]c4ccccc34)c(CN)c(N)n12 | MTCC 227 | broth dilution | MIC | 500 µg/mL |
| COCCN1CCN(CCOC)[C]1=[Ru]([Cl])[Cl].Cc1ccc(C(C)C)cc1 |  |  | MIC | 800 µg/mL |
| C[C@H]1N(C(=O)c2ccc(C(F)(F)F)cc2)C[C@@H](O)O[C@@]1(Cn1cncn1)c1ccc(F)cc1F | Isolate 1 |  | MIC | >64 µg/mL |
| Cc1ccc(C(C)C)cc1.Cc1ccc(N2C=NCCC2)cc1.[Cl][Ru][Cl] |  |  | MIC | 400 µg/mL |
| C=C1CCC2C(C)(C)CCC[C@@]2(C)[C@@H]1CCC/C(C)=C/C(=O)OC | UBC1 |  | MIC | >50 µg/mL |
| C[C@H](n1nnc(CCN2CCN(c3ccc(F)cc3)CC2)n1)[C@](O)(Cn1cncn1)c1ccc(F)cc1F | V-01-191A-261 (resistant) |  | MIC | 8 µg/mL |
| Fc1ccc(N2COc3c(ccc4ccccc34)C2)cc1 | MTCC 277 |  | MIC | 15 µg/mL |
| COc1ccc(C2=NN(Cc3n[nH]c(=S)n3-c3ccc(Br)cc3)C(=O)CC2)cc1 |  |  | MIC | 10 µg/mL |
| Cc1ccc2nc(Cl)c(C3SC(=Cc4ccccc4[N+](=O)[O-])C(=O)N3n3c(-c4ccc(Cl)cc4)nc4ccccc4c3=O)cc2c1 |  | broth dilution / visual reading | MIC99 | 100 µg/mL |
| C=C1CCC2[C@](C)(CO)CCC[C@]2(C)[C@H]1CC/C(C)=C\C(=O)OC | UBC1 |  | MIC | >50 µg/mL |
| Cc1c(C)c(C)c(C)c(C)c1C.Cc1ccc(N2C=NCCC2)cc1.[Cl][Ru][Cl] |  |  | MIC | 400 µg/mL |
| NCc1c(-c2c(-c3ccccc3)[nH]c3ccccc23)c(CN)c2nc3ccccc3n2c1N | MTCC 227 | broth dilution | MIC | 500 µg/mL |
| COCCN1CCN(C)[C]1=[Ru]([Cl])[Cl].Cc1ccc(C(C)C)cc1 |  |  | MIC | >800 µg/mL |
| Cc1ccc(N2COc3c(ccc4ccccc34)C2)cc1 | MTCC 277 |  | MIC | 20 µg/mL |
| NCc1c(-c2c(-c3ccc(Cl)cc3)[nH]c3ccccc23)c(CN)c2nc3ccccc3n2c1N | MTCC 227 | broth dilution | MIC | 1000 µg/mL |
| CCN1C=NCC1.Cc1ccc(C(C)C)cc1.[Cl][Ru][Cl] |  |  | MIC | 400 µg/mL |
| Cc1ccc2c(c1)nc1c(CN)c(-c3c(-c4ccc(S(C)(=O)=O)cc4)[nH]c4ccccc34)c(CN)c(N)n12 | MTCC 227 | broth dilution | MIC | 1000 µg/mL |
| CCC(C)n1ncn(-c2ccc(N3CCN(c4ccc(OC[C@H]5CO[C@](Cn6cncn6)(c6ccc(Cl)cc6Cl)O5)cc4)CC3)cc2)c1=O | ATCC 90018 |  | MIC | ≤0.0313 µg/mL |
| C=C1CCC2C(C)(C)CCC[C@]2(C)C1CCCC(C)=O | UBC1 |  | MIC | >50 µg/mL |
| Cc1ccc2c(c1)nc1c(CN)c(-c3c(-c4ccc(Cl)cc4)[nH]c4ccccc34)c(CN)c(N)n12 | MTCC 227 | broth dilution | MIC | 250 µg/mL |
| C=CC(C)(/C=C\c1ccc(O)cc1)c1ccc(O)cc1 | ATCC 10231 |  | MIC | 50 µg/mL |
| Cc1c(O)cccc1C(=O)N[C@@H](CSc1ccccc1)[C@H](O)CN1C[C@H]2CCCC[C@H]2C[C@H]1C(=O)NC(C)(C)C | I103 |  | MIC | >64 µg/mL |
| Cc1cc(O)c(C(C)C)cc1O |  |  | MIC | 125 µg/mL |
| O=C1CCC(c2ccc(Cl)cc2)=NN1Cc1n[nH]c(=S)n1-c1ccc(Cl)cc1 |  |  | MIC | 3 µg/mL |
| Cc1ccc2c(c1)nc1c(CN)c(-c3c(-c4ccc(F)cc4)[nH]c4ccccc34)c(CN)c(N)n12 | MTCC 227 | broth dilution | MIC | 250 µg/mL |
| CC1=CCC[C@H]2[C@](C)(CC3=C(O)C(NCC(=O)O)=CC(=O)C3=O)[C@@H](C)CC[C@]12C |  |  | MIC | 2.5 µg/mL |
| C/C=C/[C@@H]1OC(=O)C=C[C@@H]1O |  |  | MIC50 | <1 µg/mL |
| Cc1ccc(C=C2SC(c3cc4cc(C)ccc4nc3Cl)N(n3c(-c4ccc(Cl)cc4)nc4ccccc4c3=O)C2=O)cc1 |  | broth dilution / visual reading | MIC99 | 1000 µg/mL |
| CC(C)([C@](O)(Cn1cncn1)c1ccc(C(F)(F)F)cc1)S(C)(=O)=O | 30 strains |  | MIC | 0.5–4 µg/mL |
| CCCCCOc1ccc(-c2cc(-c3ccc(C(=O)N[C@H]4C[C@@H](O)[C@@H](O)NC(=O)[C@@H]5[C@@H](O)[C@@H](C)CN5C(=O)[C@H]([C@H](O)CC(N)=O)NC(=O)[C@H]([C@H](O)[C@@H](O)c5ccc(O)c(OS(=O)(=O)O)c5)NC(=O)[C@@H]5C[C@@H](O)CN5C(=O)[C@H]([C@@H](C)O)NC4=O)cc3)no2)cc1 | ATCC 90028 |  | MIC | 0.0156 µg/mL |

A second listing of 5 rows from above:

structure	strain	method	endpoint	value
CN(C)c1ccc(CN2CCN(Cc3ccc(N(C)C)cc3)[C]2=[Ru]([Cl])[Cl])cc1.Cc1ccc(C(C)C)cc1			MIC	100 µg/mL
Cc1ccc(C=C2SC(c3cc4cc(C)ccc4nc3Cl)N(n3c(-c4ccc(Cl)cc4)nc4ccccc4c3=O)C2=O)cc1		broth dilution / visual reading	MIC99	1000 µg/mL
C=C1CCC2C(C)(C)CCC[C@@]2(C)[C@@H]1CCC/C(C)=C/C(=O)OC	UBC1		MIC	>50 µg/mL
C=CC(C)(/C=C\c1ccc(O)cc1)c1ccc(O)cc1	ATCC 10231		MIC	50 µg/mL
Cc1ccc(C2=NN(Cc3n[nH]c(=S)n3-c3ccc(Br)cc3)C(=O)CC2)cc1			MIC	10 µg/mL